These results are taken from PMC6911215, “A structural basis for antibody-mediated neutralization of Nipah virus reveals a site of vulnerability at the fusion glycoprotein apex” (2019).

The test system of the data set is NiV-F ectodomain (residues G26-D482) with C-terminal GCNt trimerization motif, prefusion, uncleaved, Nipah virus, Q9IH63 26-482. In words: crystal structure.

For “NiV-F ectodomain (residues G26-D482) with C-terminal GCNt trimerization motif, prefusion, uncleaved”, the result is “binds”.
